Pooled drug test results. Numbers come from NIAID ChemDB, via PubChem.

Common to all: whole-cell or culture tests; agent: Coxsackie virus; measure: EC50

ECn: concentration that inhibits the pathogen or its effect by n%. a–b is a range or a potency band. Lines come from different laboratories, so protocols vary.

CSc1nsc(-c2cc[n+](C)cc2)c1C#N ; read by: plaque count ; strain or isolate: TYPE B1 ; cell line: HEP-2 ; result: >1000 µM
CC=NC(=N)c1nc(-c2ccc(C)cc2)n(C/C=C/c2ccccc2)n1 ; read by: cytopathic effect ; strain or isolate: TYPE B4 ; cell line: VERO ; result: >10 µg/mL
CC(=O)c1ccc(CCCOc2ccc(-c3noc(C(F)F)n3)c(C)c2)nn1 ; read by: cytopathic effect ; cell line: HeLa ; result: 0.033–0.659 µg/mL
CSc1nsc(-c2ccc[n+](C)c2)c1C#N ; read by: plaque count ; strain or isolate: TYPE B1 ; cell line: HEP-2 ; result: >1250 µM
CC1(CO)CCC(Cn2nnc3c(=O)[nH]cnc32)C1(C)C ; read by: cytopathic effect ; strain or isolate: TYPE B4 ; cell line: HeLa ; result: >200 µg/mL
CSc1nsc(-c2ccc(OS(=O)(=O)c3ccc(C)cc3)cc2)c1C#N ; read by: plaque count ; strain or isolate: TYPE B1 ; cell line: HEP-2 ; result: >25 µM
C=C(N=CC)c1nc(-c2cccc(C)c2)n([C@@H]2O[C@H](CO)[C@@H](O)[C@H]2O)n1 ; read by: cytopathic effect ; strain or isolate: TYPE B4 ; cell line: VERO ; result: >40 µg/mL
CC1(CO)CCC(Cc2nc3ncnc(N)c3[nH]2)C1(C)C ; read by: cytopathic effect ; strain or isolate: TYPE B4 ; cell line: HeLa ; result: >40 µg/mL
Cc1cc(OCCCc2ccc(C(C)F)nn2)cc(C)c1-c1noc(C(F)F)n1 ; read by: cytopathic effect ; cell line: HeLa ; result: 0.033–0.659 µg/mL
CSc1nsc(C2CCCCC2)c1C#N ; read by: plaque count ; strain or isolate: TYPE B1 ; cell line: HEP-2 ; result: >50 µM
Cc1cc(O/C=C/Cc2ccc(Cl)nn2)cc(C)c1-c1noc(C(F)(F)F)n1 ; read by: cytopathic effect ; cell line: HeLa ; result: 0.033–0.659 µg/mL
CC=NC(=N)c1nc(-c2ccccc2)n(Cc2ccccc2)n1 ; read by: cytopathic effect ; strain or isolate: TYPE B4 ; cell line: HeLa ; result: >10 µg/mL
COCc1ccc(CCCOc2cc(C)c(-c3noc(C)n3)c(C)c2)nn1 ; read by: cytopathic effect ; cell line: HeLa ; result: 0.033–0.659 µg/mL
CC1(CO)CCC(Cn2nnc3c(Cl)ncnc32)C1(C)C ; read by: cytopathic effect ; strain or isolate: TYPE B4 ; cell line: VERO ; result: >40 µg/mL
C=C(N=CC)c1nc(-c2ccc(C)cc2)n([C@@H]2O[C@H](CO)[C@@H](O)[C@H]2O)n1 ; read by: cytopathic effect ; strain or isolate: TYPE B4 ; cell line: HeLa ; result: >40 µg/mL
Cc1cc(OCCCc2ccc(Cl)nn2)cc(C)c1-c1noc(C(F)F)n1 ; read by: cytopathic effect ; cell line: HeLa ; result: 0.033–0.659 µg/mL

A second listing of 2 rows from above:

{"compound": "CC(=O)c1ccc(CCCOc2ccc(-c3noc(C(F)F)n3)c(C)c2)nn1", "read by": "cytopathic effect", "cell line": "HeLa", "result": "0.033–0.659 µg/mL"}
{"compound": "CSc1nsc(-c2ccc[n+](C)c2)c1C#N", "read by": "plaque count", "strain or isolate": "TYPE B1", "cell line": "HEP-2", "result": ">1250 µM"}